# Mutational tolerance of the Zika virus NS2B-NS3 protease

The scanned region of Zika virus MR766 is shown below (positions 1-308): NS2B is 2-131, NS3 begins at position 132.
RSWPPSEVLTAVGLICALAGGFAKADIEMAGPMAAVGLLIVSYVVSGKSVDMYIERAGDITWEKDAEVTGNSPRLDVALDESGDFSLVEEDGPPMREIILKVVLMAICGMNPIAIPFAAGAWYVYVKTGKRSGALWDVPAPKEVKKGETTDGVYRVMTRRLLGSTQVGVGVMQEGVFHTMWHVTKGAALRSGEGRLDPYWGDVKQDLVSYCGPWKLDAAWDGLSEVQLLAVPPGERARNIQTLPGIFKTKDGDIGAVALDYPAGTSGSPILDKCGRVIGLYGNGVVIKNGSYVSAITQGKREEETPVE

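Mutant virus pools were grown in human Huh-7.5 cells. The effect is the change in frequency of a mutant, normalised to wild type, as a mean of three replicate libraries (two for positions 207-308). The study looked for pockets that tolerate few changes, as a guide for inhibitor design.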

Values are log2 effects on growth: 0 is wild type, lower means poorer growth. A change reads original residue, position, new residue. Values above 0 are not proof of better growth: six high scorers were tested one by one, five grew less well than wild type and one about as well.

| substitution | log2 effect |
|---|---|
| F177* | -6.47 |
| F177A | -6.14 |
| F177C | -5.20 |
| F177D | -4.57 |
| F177E | -5.04 |
| F177G | -6.60 |
| F177H | -4.43 |
| F177I | -5.14 |
| F177K | -5.07 |
| F177L | -4.40 |
| F177M | -5.72 |
| F177N | -5.12 |
| F177P | -5.82 |
| F177Q | -4.53 |
| F177R | -6.76 |
| F177S | -5.30 |
| F177T | -5.78 |
| F177V | -6.51 |
| F177W | -5.43 |
| F177Y | -4.95 |
| H178* | -5.70 |
| H178A | -5.92 |
| H178C | -4.98 |
| H178D | -5.18 |
| H178E | -4.53 |
| H178F | -4.86 |
| H178G | -6.09 |
| H178I | -4.72 |
| H178K | -4.73 |
| H178L | -6.68 |
| H178M | -4.61 |
| H178N | -2.46 |
| H178P | -6.50 |
| H178Q | -6.14 |
| H178R | -6.10 |
| H178S | -6.50 |
| H178T | -6.29 |
| H178V | -5.93 |
| H178W | -5.20 |
| H178Y | -5.08 |
| T179* | -6.83 |
| T179A | -6.54 |
| T179C | -5.50 |
| T179D | -5.43 |
| T179E | -5.25 |
| T179F | -5.86 |
| T179G | -6.66 |
| T179H | -5.78 |
| T179I | -5.63 |
| T179K | -5.64 |
| T179L | -7.32 |
| T179M | -5.37 |
| T179N | -4.67 |
| T179P | -6.80 |
| T179Q | -5.63 |
| T179R | -7.17 |
| T179S | -1.06 |
| T179V | -6.68 |
| T179W | -5.71 |
| T179Y | -5.46 |
| M180* | -7.14 |
| M180A | -5.23 |
| M180C | -4.87 |
| M180D | -4.25 |
| M180E | -4.48 |
| M180F | -4.31 |
| M180G | -5.50 |
| M180H | -4.57 |
| M180I | -5.56 |
| M180K | -4.88 |
| M180L | -6.52 |
| M180N | -4.92 |
| M180P | -5.82 |
| M180Q | -4.62 |
| M180R | -6.21 |
| M180S | -6.21 |
| M180T | -5.62 |
| M180V | -5.68 |
| M180W | -5.27 |
| M180Y | -4.54 |

The authors count -1 or higher as tolerated. Position 1 is the last residue of NS2A. The region was split into three libraries (1-103, 104-206, 207-308). An asterisk is a stop codon; stop codons read about -7, near the floor of the assay.

The measurements come from Ni et al. 2025 (doi:10.1038/s41467-025-63602-z).